Measurements taken from patent US20200147199A1 (ROCKEFELLER UNIVERSITY, published 2020).

T1: DENV1 EDIII, polyhistidine-AviTag, produced in HEK-293-6E cells (DENV1)
T1 construct: also called EDIII of DENV1
T1 chain: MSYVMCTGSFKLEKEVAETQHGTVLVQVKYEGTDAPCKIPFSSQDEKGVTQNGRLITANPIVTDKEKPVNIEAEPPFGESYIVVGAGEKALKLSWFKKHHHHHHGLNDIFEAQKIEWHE

T2: WNV EDIII, polyhistidine-AviTag (WNV)
T2 chain: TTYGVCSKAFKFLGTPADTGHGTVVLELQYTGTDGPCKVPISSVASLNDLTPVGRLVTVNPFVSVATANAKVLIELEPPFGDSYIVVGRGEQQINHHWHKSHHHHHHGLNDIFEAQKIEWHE

B1: Z016 (MEX84_p2-55) (antibody, V domains shown)
VH: QVQLVQSGAEVKKPGASVKLSCKASGYTFTSYYVHWVRQAPGQGLEWMGIINPGNNFVSFAQNFYDRATMTRDTSTNTVYMELTNLQSEDTAVYYCARTLVAPSAQSMYYFDFWGQGTLVTVSS
VL: EIVLTQSPGTLSLSPGERGTLSCRASQYITTGHFAWYQQKPGRAPRLLIYGASVRATGVPDRFSGSGAETDFTLTISRLDPEDVGVYYCQQYGSSPVTFGPGTKVDIK
B2: Z017 (MEX84_p2-58) (antibody, V domains shown)
VH: QVQLVQSGAGMRKPGASVKVSCKASGYSFNDYYIHWVRQAPGQGLEWMGWINPKSGFTNYAQRFQGRVTMTGDTSNSVAYMELTRLTSDDTAVYYCARGGRINAPLGFDPWGQGTLVTVSS
VL: EIVLTQSPDTLSLSPGETATLSCRASQSIGSISLGWYQQKFGQAPRLLIYGASTRATGTPDRFSGSGSETDFTLTISRLEPEDSAVYYCQQYVSSPLRFGGGTKVEIK
B3: Z034 (BRA112_09) (antibody, V domains shown)
VH: EVQLLESGGGLAQPGGSLRLSCETSGFTFRSYGMGWVRQAPGKGLEWVSSIYISGDSTYYAASVKGRFTISRDNSKSTLYLQMDRLTAEDTAVYYCVRDRIQGGFGELYRYWGQGTLVTVSS
VL: DIQMTQSPSTLSASVGDRVTMTCRASQSVNKWLAWYQQKPGKAPKLLIYETSILESGVSSRFSGSGSGTEFTLTISSLQPDDFATYYCQHYHGYPWTFGQGTKVEIK
B4: Z050 (BRA138_28) (antibody, V domains shown)
VH: QVQLVQSGAEVKKPGSSVKVSCKAPGGTFSRYSIAWVRQAPGQGLEWMGGINPTFTTPNYAQKFQGRVTITADESTNTAYLDLSSLRSEDTAVYYCARFRYYYESGGYSDASPYYLDYWGQGTLVTVSS
VL: EIVLTQSPATLSLSPGERVTLSCRASQSVSSYLAWYQQKPGQAPRLLIYDASNRATGIPARFTGSGSGTDFTLTISSLEPEDFAVYYCQQRSNWPLTFGGGTKVEIK
B5: Z052 (BRA138_62) (antibody, V domains shown)
VH: QVQLQESGPGLVKPSQTLSLTCTVSGGSITGGVYYWNWIRHHPGKGLEWIGYMFYSGDTDYNPSLRSRVTISGDTSKNKFSLNLNSVTAADTAVYYCARAGFDYGSPVSAFDIWGQGTLVTVSS
VL: EIVLTQSPATLSLSPGERATLSCRASQSVSSTYLVWYQQKPGQAPRLLIYGASSRATGIPDRFSGSGSGTDFTLTISRLEPEDFAVYFCQQYAHSPRGYTFGQGTKLEIK
B6: Z055 (MEX84_p4-61) (antibody, V domains shown)
VH: EVQLVQSGAEVKKPGASVKVSCKASGYTFSGYYIHWLRQAPGQGLEWMGWINSNSGGADSGPRFHGRVTMTRDTSINTAYLELTNLRSDDTAVYYCARRTYYDTRFPYWYFDLWGRGTLVTVSS
VL: AIRMTQSPSSLSASVGDRVTITCRASQDIGSYLNWYQQKPGKAPNVLISAASTLQSGVPSRISGIGSGTDFTLTISSLQPEDFATYYCQQSLSAPYTFGQGTKLEIK
B7: Z056 (MEX84_p2-94) (antibody, V domains shown)
VH: EVQLVQSGAEVKKPGASVKVSCKASGNTFMGYYFHWVRQAPGQGLEWMGWINPNSGHANIAQTFQGRVTMTRDPSITTAYMELSRLRSDDTAVFYCARGGMLGQLWALDNWGQGTLVTVSS
VL: DIQMTQSPSTLSASVGDRVTITCRASQSISHWLAWYQQRPGEAPKLLIYQASTLESGVPSRFSGSGSGTEFTLSISSLQPDDFATYYCQQYQSSPYTFGQGTKLEIK

Key:
[1] = target: T1, DENV1 EDIII, polyhistidine-AviTag, …; assay: cross-reactivity ELISA
[2] = target: T2, WNV EDIII, polyhistidine-AviTag; assay: cross-reactivity ELISA

Binder | binding result [1] | binding result [2]
B1 | no binding (tested: 10 µg/ml) | binds
B2 | no binding (tested: 10 µg/ml) | binds
B3 | binds | no binding (tested: 10 µg/ml)
B4 | no binding (tested: 10 µg/ml) | binds
B5 | no binding (tested: 10 µg/ml) | binds
B6 | no binding (tested: 10 µg/ml) | binds
B7 | no binding (tested: 10 µg/ml) | binds
